Results of unrelated studies side by side (data: NIAID ChemDB).

Common to all: whole-cell or culture tests; organism: Staphylococcus aureus; measure: MIC

Blank or dashed fields: not listed here.

structure | strain | value
COC[C@H](N)C1CCN(c2c(F)cn3c(=O)c(C(=O)O)cc(C4CC4)c3c2C)C1 | 1775 (ciprofloxacin-resistant) | 0.05 µg/mL
CC(=O)CN1CCN(c2c(Cl)cc3c(=O)c(C(=O)O)cn(C4CC4)c3c2F)CC1 | 1756 | 0.25 µg/mL
CC(C)c1c(O)c(O)cc2c1CC[C@H]1C(C)(C)CCC[C@]21C |  | 8 µg/mL
CC(C)c1c(O)ccc2c1C[C@H](O)[C@H]1C(C)(C)CCC[C@]21C | Methicillin-resistant | >32 µg/mL
CN[C@@H]1[C@H](O[C@H]2[C@H](O[C@H]3[C@H](O)[C@@H](O)[C@H](N=C(N)N)[C@@H](O)[C@@H]3N=C(N)N)O[C@@H](C)[C@]2(O)C=O)O[C@@H](CO)[C@H](O)[C@H]1O | MRSA | 6.25 µg/mL
COc1ccc2c(c1C(C)C)[C@H](O)C[C@H]1C(C)(C)CCC[C@]21C | Methicillin-resistant | >32 µg/mL
O=C(O)c1cn(C2CC2)c2c(F)c(N3CCNCC3)c(Cl)cc2c1=O | 133 | 0.25 µg/mL
NC1CON(Cc2ccccc2)C1=O |  | >2500 µM
CO[C@H]1/C=C/O[C@@]2(C)Oc3c(C)c(O)c4c(O)c(c(/C=N/N5CCN(C)CC5)c(O)c4c3C2=O)NC(=O)/C(C)=C\C=C\[C@H](C)[C@H](O)[C@@H](C)[C@@H](O)[C@@H](C)[C@H](OC(C)=O)[C@@H]1C | 209P | 0.0078 µg/mL
CC(C)c1c(O)ccc2c1C(=O)[C@H](Br)[C@H]1C(C)(C)CCC[C@]21C | Methicillin-resistant | 8 µg/mL
CC1CN(c2c(F)cc3c(=O)c(C(=O)O)cn(C4CC4)c3c2Cl)CCN1 | 133 | 0.06 µg/mL
CC(C)c1c(O)ccc2c1CCC1C(C)(C)CCC[C@]21C |  | 2 µg/mL
NC1CON(CC(=O)O)C1=O |  | >2500 µM
O=c1[nH]sc2c(F)cccc12 | ATCC 6538 | 40 µg/mL
Cc1c(N2C[C@@H]3C(N)[C@@H]3C2)c(F)cn2c(=O)c(C(=O)O)cc(C3CC3)c12 | NCTC10649 | 0.05 µg/mL
CC(=O)CCN1CCN(c2c(Cl)cc3c(=O)c(C(=O)O)cn(C4CC4)c3c2F)CC1 | 133 | 0.25 µg/mL
NC1CON(CCOCc2ccccc2)C1=O |  | >2500 µM
CC(=O)Oc1ccc2c(c1C(C)C)C=C[C@H]1C(C)(C)CCC[C@]21C | Methicillin-resistant | >32 µg/mL
Cc1cc2c(c(C(C)C)c1O)CC[C@H]1C(C)(C)CCC[C@]21C |  | 32 µg/mL
NC(=O)CN1OCC(N)C1=O |  | >2500 µM
CC(C)c1c(O)c(C(=O)O)cc2c1CC[C@H]1C(C)(C)CCC[C@]21C |  | 8 µg/mL
CCCCn1sc2ccc(C(F)(F)F)cc2c1=O | ATCC 6538 | 40 µg/mL
CC(=O)Nc1cc2c(c(C(C)C)c1OC(C)=O)CC[C@H]1C(C)(C)CCC[C@]21C |  | >32 µg/mL
CC1CN(c2c(Cl)cc3c(=O)c(C(=O)O)cn(C4CC4)c3c2F)CC(C)N1 | 422 | 0.25 µg/mL
NC1CON(CCO)C1=O |  | >2500 µM
CN1CCN(c2c(Cl)cc3c(=O)c(C(=O)O)cn(C4CC4)c3c2F)CC1 | 422 | 0.025 µg/mL
NC(=O)c1ccc(F)cc1SSc1cc(F)ccc1C(N)=O | ATCC 6538 | 2.5 µg/mL
CC1CN(c2c(Cl)cc3c(=O)c(C(=O)O)cn(C4CC4)c3c2F)CCN1 | 422 | 0.25 µg/mL
C[C@H]1C[C@H](N)CN1c1nc2c(cc1F)c(=O)c(C(=O)O)cn2-c1ccc(F)cc1F | NCTC10649 | 0.03 µg/mL
CO[C@H]1/C=C/O[C@@]2(C)Oc3c(C)c(O)c4c(=O)c(c5oc6cc(N7CCN(CC(C)C)CC7)cc(=O)c6nc5c4c3=C2O)NC(=O)/C(C)=C\C=C\[C@H](C)[C@H](O)[C@@H](C)[C@@H](O)[C@@H](C)[C@H](OC(C)=O)[C@@H]1C | Newman | 0.0078 µg/mL
COc1c(CO)cc2c(c1C(C)C)CC[C@H]1C(C)(C)CCC[C@]21C |  | >32 µg/mL
CCCCn1sc2c(F)cccc2c1=O | ATCC 6538 | 40 µg/mL
CCC[C@H](N)C1CCN(c2c(F)cn3c(=O)c(C(=O)O)cc(C4CC4)c3c2C)C1 | 1775 (ciprofloxacin-resistant) | 0.05 µg/mL

For reference, 4 entries again:

structure,strain,value
CC(=O)CCN1CCN(c2c(Cl)cc3c(=O)c(C(=O)O)cn(C4CC4)c3c2F)CC1,133,0.25 µg/mL
CC(=O)Oc1ccc2c(c1C(C)C)C=C[C@H]1C(C)(C)CCC[C@]21C,Methicillin-resistant,>32 µg/mL
CC(C)c1c(O)ccc2c1C[C@H](O)[C@H]1C(C)(C)CCC[C@]21C,Methicillin-resistant,>32 µg/mL
CC(C)c1c(O)ccc2c1CCC1C(C)(C)CCC[C@]21C,,2 µg/mL

Rows are shuffled and stem from different studies.